Pooled drug test results. Numbers come from NIAID ChemDB, via PubChem.

All rows: growth or infection tests; organism: Measles virus; read-out: EC50

An empty or dashed field is not shown. ECn is the concentration giving n% inhibition of infection, replication or growth. Lines come from different laboratories, so protocols vary.

compound,strain or isolate,cells,read by,value
CC[C@@H](C(C)C)[C@H](O)[C@@H](O)[C@@H](C)[C@H]1CC[C@H]2[C@@H]3CC(=O)[C@@]4(O)C[C@@H](F)CC[C@]4(C)[C@H]3CC[C@]12C,MV/Brazil/001/91,VERO,plaque count,6 µM
N#CCSc1nsc(-c2ccccc2)c1C#N,Edmonston,HEP-2,plaque count,>10 µg/mL
NC(=O)c1ncn([C@@H]2O[C@H](CO)[C@@H](O)[C@H]2O)n1,TN1994,CV-1,neutral red,10 µg/mL
NC(=O)c1c[se]c([C@@H]2O[C@H](CO)[C@@H](O)[C@H]2O)n1,Edmonston,VERO,cytopathic effect,1 µg/mL
Nc1ncnc2c1c(Cl)cn2[C@@H]1O[C@H](CO)[C@@H](O)[C@H]1O,Niigata-1,VERO,plaque count,>1.6 µg/mL
CC[C@@H](C(C)C)[C@H](O)[C@@H](O)[C@@H](C)[C@H]1CC[C@H]2[C@@H]3CC(=O)[C@H]4C[C@@H](OC(C)=O)CC[C@]4(C)[C@H]3CC[C@]12C,MV/Brazil/001/91,VERO,plaque count,30 µM
NC(=O)c1ncn([C@@H]2O[C@H](CO)[C@@H](O)[C@H]2O)n1,Niigata-1,VERO,plaque count,8.5 µg/mL
N#Cc1c(N2CCCCC2)nsc1-c1ccccc1,Edmonston,HEP-2,plaque count,>25 µg/mL
C#Cc1c(C(N)=O)ncn1[C@@H]1O[C@H](CO)[C@@H](O)[C@H]1O,SSPE Yamagata-1,VERO,plaque count,0.32 µg/mL
CC[C@@H](C(C)C)[C@H](O)[C@@H](O)[C@@H](C)[C@H]1CC[C@H]2[C@@H]3CC(=O)C4C[C@H](F)CC[C@]4(C)[C@H]3CC[C@]12C,MV/Brazil/001/91,VERO,plaque count,38 µM
CSc1nsc(-c2ccccc2)c1C(=O)O,Edmonston,HEP-2,plaque count,>500 µg/mL
COc1c(C)c2c(c(O)c1CC(=O)O)C(=O)OC2,Sugiyama,VERO,plaque count,0.2 µg/mL
Nc1cc2[nH]cnc2c(=O)[nH]1,Yamagata-1,VERO,plaque count,1.18 µg/mL
CC[C@@H](C(C)C)[C@@H](O)[C@H](O)[C@@H](C)[C@H]1CC[C@H]2[C@@H]3CC(=O)C4C[C@@H](F)CC[C@]4(C)[C@H]3CC[C@]12C,MV/Brazil/001/91,VERO,plaque count,7 µM
OC[C@H]1O[C@@H]2O[C@H]3[C@H](O)[C@@H](O)[C@@H](O[C@H]4[C@H](O)[C@@H](O)[C@@H](O[C@H]5[C@H](O)[C@@H](O)[C@@H](O[C@H]6[C@H](O)[C@@H](O)[C@@H](O[C@H]7[C@H](O)[C@@H](O)[C@@H](O[C@H]8[C@H](O)[C@@H](O)[C@@H](O[C@H]1[C@H](O)[C@H]2O)O[C@@H]8CO)O[C@@H]7CO)O[C@@H]6CO)O[C@@H]5CO)O[C@@H]4CO)O[C@@H]3CO,Edmonston,VERO,plaque count,>2560 µM
CCCSc1nsc(-c2ccccc2)c1C(N)=O,Edmonston,HEP-2,plaque count,>300 µg/mL
Nc1ccn([C@@H]2C=C(CO)[C@@H](O)[C@@H]2O)c(=O)n1,Niigata-1,VERO,plaque count,0.049 µg/mL
N#Cc1c(N2CCCC2)nsc1-c1ccccc1,Edmonston,HEP-2,plaque count,>7 µg/mL
CC[C@@H](C(C)C)[C@@H](O)[C@H](O)[C@@H](C)[C@H]1CC[C@H]2[C@@H]3CC(=O)[C@@]4(F)C[C@@H](O)CC[C@]4(C)[C@H]3CC[C@]12C,MV/Brazil/001/91,VERO,plaque count,75 µM
Nc1nc2c(ncn2CCOCP(=O)(O)O)c(=O)[nH]1,CC,,neutral red,10 µg/mL
NC(=O)c1[nH]nc([C@@H]2O[C@H](CO)[C@@H](O)[C@H]2O)c1O,Niigata-1,VERO,plaque count,0.11 µg/mL
CCCSc1nsc(-c2ccccc2)c1C(=O)OC,Edmonston,HEP-2,plaque count,>50 µg/mL
CC[C@H](/C=C/[C@@H](C)[C@H]1CC[C@H]2[C@@H]3CC=C4C[C@@H](O)CC[C@]4(C)[C@H]3CC[C@]12C)C(C)C,MV/Brazil/001/91,VERO,plaque count,117 µM
NC12CC3CC(CC(C3)C1)C2,Niigata-1,VERO,plaque count,85 µg/mL
CC[C@@H](C(C)C)[C@H](O)[C@@H](O)[C@@H](C)[C@H]1CC[C@H]2[C@@H]3CC(=O)[C@H]4C[C@H](O)[C@H](O)C[C@]4(C)[C@H]3CC[C@]12C,MV/Brazil/001/91,VERO,plaque count,65 µM
NC(=O)c1ncn([C@@H]2O[C@H](CO)[C@@H](O)[C@H]2O)n1,CAM/RB,VERO,plaque count,49.4 µM

The last 3 rows once more:

| compound | strain or isolate | cells | read by | value |
|---|---|---|---|---|
| NC12CC3CC(CC(C3)C1)C2 | Niigata-1 | VERO | plaque count | 85 µg/mL |
| CC[C@@H](C(C)C)[C@H](O)[C@@H](O)[C@@H](C)[C@H]1CC[C@H]2[C@@H]3CC(=O)[C@H]4C[C@H](O)[C@H](O)C[C@]4(C)[C@H]3CC[C@]12C | MV/Brazil/001/91 | VERO | plaque count | 65 µM |
| NC(=O)c1ncn([C@@H]2O[C@H](CO)[C@@H](O)[C@H]2O)n1 | CAM/RB | VERO | plaque count | 49.4 µM |